# Results of single-concentration screens

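Phenotypic screen: M. tuberculosis growth, glucose 7H9 medium, 3 days; the read-out is not stated. Tested at 500 µM. Higher reads as more growth inhibition (inferred: compounds with an IC50 in retests scored well above the rest). Of about 18,000 compounds tested this way, about 1,400 (7.9%) reached 50% or more in at least one test.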

Values are the deposited “Percent Effect”, in %.
The record does not define 0% and 100%; most values in the screen are far below 50% and negative numbers occur (in some assays of this library far below -100).
This is part of a subset picked to be rich in strong results.

* CSc1cccc(CN(C)C(=O)CC2COCCN2)c1 (stereo not shown) : 18.48%
* Cc1cnccc1CCN : -8.708%
* CC(C)(CO)CCCNC(=O)N1CCSCC1 : 10.13%
* NCC(CO)Cc1cccc(F)c1 (stereo not shown) : 19.88%
* NCCNS(=O)(=O)c1ccc(F)c(Br)c1 : 50.4%
* OC[C@@H]1CNC[C@H]1C1CCN(Cc2ccco2)CC1 : 9.798%
* CCOC(=O)c1cnn(-c2ccc(Br)cn2)c1N : -4.694%
* CCOCCCNC(=O)Nc1nnc2ccccn12 : 5.158%
* CCn1c(SCC(N)=O)nnc1-c1cccnc1 : -11.12%
* CCn1nc(C(C)C)cc1C(=O)NC(C)COC (stereo not shown) : 21.1%
* COc1ccc(S(=O)(=O)N2CC(NCC3CC3)C2)cc1 : 57.6%
* Cc1cccc(C)c1NC(=O)C1CCS(=O)(=O)C1 (stereo not shown) : -7.18%
* CC(C)N1CCN(CCCSc2nnnn2C)CC1 : -2.191%
* O=S(=O)(CCN1CCN(CCO)CC1)C(F)(F)F : -1.787%
* COc1ccc2c(c1)NC(=O)C2O (stereo not shown) : 9.805%
* CCC(N)(CC)CNS(=O)(=O)c1cccc(F)c1 : -4.013%
* CCOCCCNC(=O)CC#N : 2.671%
* CC(CCc1ccc(O)cc1)NC1(CO)CC1 (stereo not shown) : 57.9%
* COc1ccc(CC2CCN2)cc1 (stereo not shown) : 79.99%
* CCOc1ccccc1[C@@H](C)N : 24.24%
* CN(C)C(=O)C(C)(C)NC(=O)[C@H](O)c1ccccc1Cl : -1.913%
* COC(=O)N1CCC(Nc2nnc(C(F)(F)F)s2)CC1 : 56.92%
* O=C(NCCCc1ccccc1)C1CNCCO1 (stereo not shown) : 11.37%
* COc1cc(OC)cc(C2(F)CCNC2)c1 (stereo not shown) : 34.68%
* CCC(C)Cn1nc(COC)oc1=O (stereo not shown) : 16.98%
* CCNc1ncc(C(=O)N2CCCc3sccc3C2)s1 : -2.619%
* O=C(NCc1ncc[nH]1)Nc1cccc(F)c1 : 20.34%
* Cc1cc(N)nn1-c1cccc(F)c1 : 22.93%
* CCSc1nnc(N2CCOCC2)n1C : 14.75%
* Oc1cccc(C2CNCCO2)c1 (stereo not shown) : 23.92%
* CN(CC(C)(CO)CO)c1ncc(Cl)cc1Cl : 80.49%
* CN1CCN(C2CCN(C(=O)Cc3ccsc3)C2)CC1 (stereo not shown) : 4.565%
* COc1ccc(C(=O)N(C)CCn2cccn2)cc1 : 76.82%
* COC(=O)CS(=O)(=O)Cc1ccc(CN)cc1 : -11.04%
* CCN(CCC(N)=O)Cc1cccc2c1OCO2 : 61.04%
* Cc1cccc(NC(=O)N(C)C(CO)C(C)(C)C)n1 (stereo not shown) : 5.229%

The last 2 entries again:

| Compound | percent effect |
|---|---|
| `CCN(CCC(N)=O)Cc1cccc2c1OCO2` | 61.04% |
| `Cc1cccc(NC(=O)N(C)C(CO)C(C)(C)C)n1` (stereo not shown) | 5.229% |

The values are deposited in ChEMBL (CHEMBL3988442, “University of Dundee, Small-Polar-MMV Screening Library” (2021)).